# Experimental data reported in patent US20040121316A1 (priority 2002, published 2004).
# The structures given here were assigned with low confidence; some may be wrong.
# Columns and labels:
# WT HIV-1 = test: Cell-based assay (MT-4) EC50, WT; conditions: read-out: Cell-based assay (MT-4) EC50/nM WT; MT-4, WT
# HIV-1 46I50V = test: Cell-based assay (MT-4) EC50, 46I50V; conditions: read-out: Cell-based assay (MT-4) EC50/nM 46I50V; MT-4, 46I50V
# HIV-1 30N82I88D = conditions: read-out: Cell-based assay (MT-4) EC50/nM 30N82I88D; MT-4, 30N82I88D
# HIV-1 84V90M = test: Cell-based assay (MT-4) EC50, 84V90M; conditions: read-out: Cell-based assay (MT-4) EC50/nM 84V90M; MT-4, 84V90M
# HIV-1 48V54V82A = test: Cell-based assay (MT-4) EC50, 48V54V82A; conditions: read-out: Cell-based assay (MT-4) EC50/nM 48V54V82A; MT-4, 48V54V82A
# [1] = system: wild-type HIV-1 strain IIIB; test: Anti-HIV-1 Cell Culture Assay (EC50); assay type: cell-based; design: scale not given here; conditions: class symbols, Table 10; tested form: TFA
# mutant HIV-1 I84V/L90M = test: Resistance Evaluation, I84V/L90M fold change; assay type: cell-based; conditions: EC50 of mutant I84V/L90M relative to wild type, class symbols
# [2] = molecular target: recombinant HIV-1 protease (Human immunodeficiency virus type 1 group M subtype B, UniProt P04585); test: HIV-1 Protease Enzyme Assay (Ki); assay type: biochemical; conditions: class symbols, Table 10; tested form: TFA
# [3] = system: mutant HIV-1 I50V #2 (L10I/M46I/I50V); test: Resistance Evaluation, I50V #2 fold change; assay type: cell-based; conditions: EC50 of mutant L10I/M46I/I50V relative to wild type; class symbols; tested form: TFA
# [4] = system: mutant HIV-1 I50V #1 (M46I/I47V/I50V); test: Resistance Evaluation, I50V #1 fold change; assay type: cell-based; conditions: EC50 of mutant M46I/I47V/I50V relative to wild type, class symbols
smiles,measurement,setting,value
CCCCOC(=O)[C@H](C)NP(=O)(COc1cccc(CN2C(=O)N(Cc3ccc4[nH]nc(N)c4c3)[C@H](Cc3ccccc3)[C@H](O)[C@@H](O)[C@H]2Cc2ccccc2)c1)Oc1ccccc1 (stereo partly drawn),EC50,WT HIV-1,1040 nM
same,EC50,HIV-1 46I50V,797 nM
same,EC50,HIV-1 30N82I88D,425 nM
same,EC50,HIV-1 84V90M,> 6000 nM
same,EC50,HIV-1 48V54V82A,790 nM
CCOC(=O)[C@H](C)OP(=O)(CCNCc1ccc(C[C@H](NC(=O)O[C@H]2CO[C@H]3OCC[C@H]32)[C@H](O)CN(CC(C)C)S(=O)(=O)c2ccc(OC)cc2)cc1)Oc1ccccc1OCC (stereo partly drawn),EC50,[1],+ +
same,I84V/L90M fold change,mutant HIV-1 I84V/L90M; tested form: TFA,− (≦3)
same,Ki,[2],+ +
same,I50V (#2) fold change,[3],+ +
same,I50V (#1) fold change,[4]; tested form: TFA,− (≦3)
CCOC(=O)C(CC)OP(=O)(COc1ccc(C[C@H](NC(=O)O[C@H]2CO[C@H]3OCC[C@H]32)[C@H](O)CN(CC(C)C)S(=O)(=O)c2ccc(OC)cc2)cc1)Oc1ccccc1 (stereo partly drawn),I84V/L90M fold change,mutant HIV-1 I84V/L90M,− (≦3)
same,I50V (#1) fold change,[4],+ (>3 to ≦10)
